Results of unrelated studies side by side (data: NIAID ChemDB).

Shared fields: growth or infection tests; species: HIV-1; read-out: EC50

Lines come from different laboratories, so protocols vary.

smiles,strain,changes,cells,method,conditions,result
CC(C)C1=C2[C@H]3CC[C@@H]4[C@@]5(C)CC[C@H](OC(=O)[C@H]6C[C@@H](C(=O)O)C6(C)C)C(C)(C)[C@@H]5CC[C@@]4(C)[C@]3(C)CC[C@@]2([C@@H](O)CNC(=O)c2ccc(CN3CCOCC3)cc2)CC1=O,92HT599,-,MT-2,p24 / ELISA,-,<1 µM
CCCOC(=O)N1c2ccc3ccccc3c2C=CC1C#N,IIIB,-,MOLT-3,syncytia,-,6.1 µM
CCCCCOC(=O)C(C)(C)N[P@@](=O)(CO[C@H](C)Cn1cnc2c(N)ncnc21)N[C@@H](CC(=O)OC(C)C)C(C)C,-,-,MT4-GFP,fluorescence,50% human serum,170 µM
Cc1cn([C@@H]2C[C@@H](N=[N+]=[N-])[C@H](COP(N)(=O)OC[C@H]3O[C@@H](n4cc(C)c(=O)[nH]c4=O)C[C@@H]3N=[N+]=[N-])O2)c(=O)[nH]c1=O,-,-,CEM + CEM TK-,-,-,>10 µM
CCCCCCCOC(=O)[C@@H](C)NP(=O)(CO[C@H](C)Cn1cnc2c(N)ncnc21)NC[C@H](C)C(=O)OC(C)C,-,-,MT4-GFP,fluorescence,50% human serum,12 µM
C/C(=C\CC[C@@H](C)[C@H]1CC[C@@]2(C)C1=CC[C@H]1[C@@]3(C)CC[C@H](O)C(C)(C)[C@@H]3CC[C@@]12C)C(=O)O,deltaTAT/Rev MC99,-,1A2,syncytia,-,1 µg/mL
CC(C)=CCOc1cc(NC(=S)c2ccsc2C)ccc1Cl,IIIB,-,CEM + CEM-SS,p24,-,0.03 µM
CC(C)C1=C2[C@H]3CC[C@@H]4[C@@]5(C)CC[C@H](OC(=O)[C@H]6C[C@@H](C(=O)O)C6(C)C)C(C)(C)[C@@H]5CC[C@@]4(C)[C@]3(C)CC[C@@]2(CCNCc2ccc(N)nc2)CC1=O,92HT599,-,MT-2,p24 / ELISA,-,<1 µM
CCCCCOC(=O)[C@@H](C)NP(=O)(CO[C@H](C)Cn1cnc2c(N)ncnc21)NC[C@H](C)C(=O)OC(C)C,-,-,MT4-GFP,fluorescence,50% human serum,28.3 µM
CC(C)C1=C2[C@H]3CC[C@@H]4[C@@]5(C)CC[C@H](OC(=O)[C@H]6C[C@@H](C(=O)O)C6(C)C)C(C)(C)[C@@H]5CC[C@@]4(C)[C@]3(C)CC[C@@]2([C@@H](O)CNC(=O)C(CCCN)NC(=O)c2ccc(Cl)cc2)CC1=O,92HT599,-,MT-2,p24 / ELISA,-,<1 µM
Cc1cn([C@H]2C=C[C@@H](COP(=O)(Nc3cc(C(=O)Nc4cc(C(=O)Nc5cc(C(=O)NCCC(=N)N)n(C)c5)n(C)c4)n(C)c3)OC(C)C)O2)c(=O)[nH]c1=O,-,-,CEM/TK-,syncytia,-,1.07 µM
CCOC(=O)[C@H](C)NP(=O)(OC[C@@H]1O[C@H](n2cc(C)c(=O)[nH]c2=O)C[C@H]1N=[N+]=[N-])OC[C@H]1O[C@@H](n2cc(C)c(=O)[nH]c2=O)C[C@@H]1N=[N+]=[N-],-,-,CEM + CEM TK-,-,-,>10 µM
CCCCCOC(=O)[C@H](C)NP(=O)(CO[C@H](C)Cn1cnc2c(N)ncnc21)NC[C@H](C)C(=O)OC(C)C,-,-,MT4-GFP,fluorescence,50% human serum,18.6 µM
Cc1cn([C@H]2C[C@H](N=[N+]=[N-])[C@@H](COP(=O)(Nc3cc(C(=O)Nc4cc(C(=O)NCCC(=N)N)n(C)c4)n(C)c3)OC3CCCCC3)O2)c(=O)[nH]c1=O,-,-,CEM/TK-,syncytia,-,0.122 µM
Cc1cncc(C(=O)N(CCN(C)C)CC[C@@]23CC[C@]4(C)[C@H](CC[C@@H]5[C@@]6(C)CC[C@H](OC(=O)[C@H]7C[C@@H](C(=O)O)C7(C)C)C(C)(C)[C@@H]6CC[C@]54C)C2=C(C(C)C)C(=O)C3)n1,92HT599,-,MT-2,p24 / ELISA,-,<1 µM
CCCCCOC(=O)C(C)(C)NP(=O)(CO[C@H](C)Cn1cnc2c(N)ncnc21)N[C@@H](C)CC(=O)OC(C)C,-,-,MT4-GFP,fluorescence,10% human serum,23.3 µM
CC(C)C1=C2[C@H]3CC[C@@H]4[C@@]5(C)CC[C@H](OC(=O)[C@H]6C[C@@H](C(=O)O)C6(C)C)C(C)(C)[C@@H]5CC[C@@]4(C)[C@]3(C)CC[C@@]2(CCN(CCN(C)C)C(=O)c2cncnc2)CC1=O,92HT599,-,MT-2,p24 / ELISA,-,<1 µM
CCOC(=O)N1c2ccc3ccccc3c2C=CC1C#N,IIIB,RT-P236L,MOLT-3,syncytia,-,14.3 µM
CC(C)C1=C2[C@H]3CC[C@@H]4[C@@]5(C)CC[C@H](OC(=O)[C@H]6C[C@@H](C(=O)O)C6(C)C)C(C)(C)[C@@H]5CC[C@@]4(C)[C@]3(C)CC[C@@]2([C@@H](O)CNC(=O)C(C)(C)NC(=O)c2ccc(CN3CCOCC3)cc2)CC1=O,92HT599,-,MT-2,p24 / ELISA,-,<1 µM
CCCCOC(=O)[C@H](C)NP(=O)(CO[C@H](C)Cn1cnc2c(N)ncnc21)NC[C@H](C)C(=O)OC(C)C,-,-,MT4-GFP,fluorescence,10% human serum,19.6 µM
CC(C)C1=C2[C@H]3CC[C@@H]4[C@@]5(C)CC[C@H](OC(=O)[C@H]6C[C@@H](C(=O)O)C6(C)C)C(C)(C)[C@@H]5CC[C@@]4(C)[C@]3(C)CC[C@@]2(CC(=O)NCc2cccnc2N2CCOCC2)CC1=O,92HT599,-,MT-2,p24 / ELISA,-,<1 µM
Cc1cn([C@H]2C[C@H](N=[N+]=[N-])[C@@H](COP(=O)(Nc3cc(C(=O)Nc4cc(C(=O)Nc5cc(C(=O)NCCC(=N)N)n(C)c5)n(C)c4)n(C)c3)OC(C)C)O2)c(=O)[nH]c1=O,-,-,CEM/TK-,syncytia,-,1.32 µM

For reference, 3 entries again:

{"smiles": "Cc1cn([C@H]2C=C[C@@H](COP(=O)(Nc3cc(C(=O)Nc4cc(C(=O)Nc5cc(C(=O)NCCC(=N)N)n(C)c5)n(C)c4)n(C)c3)OC(C)C)O2)c(=O)[nH]c1=O", "cells": "CEM/TK-", "method": "syncytia", "result": "1.07 µM"}
{"smiles": "CCCOC(=O)N1c2ccc3ccccc3c2C=CC1C#N", "strain": "IIIB", "cells": "MOLT-3", "method": "syncytia", "result": "6.1 µM"}
{"smiles": "CC(C)C1=C2[C@H]3CC[C@@H]4[C@@]5(C)CC[C@H](OC(=O)[C@H]6C[C@@H](C(=O)O)C6(C)C)C(C)(C)[C@@H]5CC[C@@]4(C)[C@]3(C)CC[C@@]2(CC(=O)NCc2cccnc2N2CCOCC2)CC1=O", "strain": "92HT599", "cells": "MT-2", "method": "p24 / ELISA", "result": "<1 µM"}

ECn: concentration that inhibits the pathogen or its effect by n%. An empty or dashed field is not shown.